Test system: bovine viral diarrhea virus (BVDV)
Conditions: single detergent 0.09%-0.11%, buffer containing HSA, 14° C.±1° C., FIG. 12A

With “4-tert-octylbenzyl alcohol polyethoxylate” the “inactivation kinetics compared to Triton X-100, BVDV” value was “same inactivation kinetics as Triton X-100”.
